According to article PMC6153414 (Protein Science : A Publication of the Protein Society, 2018):

System: Nc1ncnc2c1ncn2[C@@H]1O[C@H](COP(=O)(O)OP(=O)(O)OP(=O)(O)O)[C@@H](O)[C@H]1O
Assay: purified protein

## DotBL (Legionella pneumophila)
  Km: 0.99 ± 0.30 mM
